The values below come from the supplement of paper PMC9931576.

Human monoclonal antibodies against the spike receptor-binding domain (heavy:light variable regions). IC50 against pseudoviruses bearing the spike of naturally observed variants; lower = stronger; >10 µg/ml means not reached at the top dose. No active / inactive call. The stated detection limit is 0.0005 µg/ml; values near or below 0.001 µg/ml lie at the floor of the assay. Bounds are passed on as bounds.

B1: BD55-1411 (protein)
chain 1: QVQLVESGGGVVQPGRSLRLSCAASGFSFSNYGMHWVRQAPGKGLEWVSLIWYDGSSKYYADSVKGRFTISRDNSKNTMYLHMNSLSAEDTAVYYCARDPRYYDSTGYYNAQYYFDYWGQGTLVTVSS
chain 2: EIVLTQSPATLSLSPGERATLSCRASQSVSSYVAWYQQKPGQAPRLLIGDASNRATGIPARFSASGSGTDFTLTISSLEPEDFAVYYCQQRSNWLWTFGQGTKVEVK
B2: BD55-1405 (protein)
chain 1: QVQLQEWGPGLVKPSQTLSLTCTVSGGSISGTSYYWSWIRQPAGKGLEWIGRIYYRGSTYYNPSLKSRVTISVDTSKNQFSLRLNSVTAADTAVYYCARDSSLYSGYDSHDYWGQGTPVTVSS
chain 2: DIQMTQSPSSLSASVGDRVTITCRASQTISNYLNWYQQRPGKAPKLLIYGAASLHSGVPSRFSVSGSGTDFTLTINNLQPEDFATYYCQQTYRTPPTFGGGTKVEIK
B3: BD55-1403 (protein)
chain 1: QVQLVQSGAEMKKPGSSVKVSCQASGGTFSTYVISWVRQAPGQGLEWMGGIIPIFNTPHYAQKFQGRVTITADESTSTAYMELSSLTSGDTAVYYCARVSQWELLVYWGQGTLVTVSS
chain 2: EIVLTQSPGTLSLSPGERATLSCRASQSINSNYLAWYQQKPGQAPRLLIYGASSRATGIPDRFSGSGSGTDFTLTISRLEPEDFAVYYCQQYGVSPRWTFGQGTKVEIK
B4: BD55-1432 (protein)
chain 1: EVQLVESGGGLVQPGRSLRLSCAASGFNFDDYAMYWVRQAPGKGLEWVSGISWNSGTIGYADSVKGRFTISRDNAENSLYLQMNRLRAEDTALYYCAKDIEALEGYNGSYGFDYWGQGTLVTVSS
chain 2: QSALTQPASVSGSPGQSITISCTGTSSDVGVYNYVSWYQQHPGKAPKLMIYDVSKRPSGVSNRFSGSKSGNTASLTISGLQAEDEADYYCSSYTSSSTLKFGGGTKLTVL
B5: BD55-1445 (protein)
chain 1: QVQLQESGPGLVKPSETLSLTCTVSGGSITSYYWSWIRQPPGKGLEWIGYIYYSGSTDYNPSLESRVTISVDTSKSQFSLKLTSVTAADTAVYYCARMRGAAGPNYYYYYAMDVWGQGTTVTVSS
chain 2: EIVMTQSPATLSVSPGERATLSCRASQSLSSNLAWYQQKPGQAPRLLIYGASTRATGIPARFSGSGSGTEFTLTISSLQSEDFAVYYCQQYGRTFGQGTKVEIK
B6: BD55-1429 (protein)
chain 1: EVQLVESGGGLVQPGGSLRLSCSASGFTFSSYAMHWVRQAPGKGLECVSSISSDGGITYYADSVKGRFTISRDNSKNTLYLEMSSLRTEDTAVYYCVKDRPVVFTLFDYWGQGTQVTVSS
chain 2: DIQMTQSPSSLSASVGDRVTITCRASQSISSYLNWYQQKPGKPPKLLIYAASSLQSGVPSRFSGSGSGTDFTLSISSLQPEDFATYYCQQSYTTPYTFGQGTKLEIK

The first assay deals with SARS-CoV-2 Omicron BA.1 spike pseudovirus. Nature of the assay: pseudovirus neutralization IC50; higher = weaker neutralization. As to the method: (§1)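 Single-round VSV luciferase pseudovirus mixed with antibody dilutions for 1 h and put on Huh-7 cells for about a day; IC50 from the dose curve.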
On to B1, for which the “pseudovirus neutralization IC50” value was > 10 µg/mL.

Consider B2, for which the “pseudovirus neutralization IC50” value was > 10 µg/mL.

As to B3, the “pseudovirus neutralization IC50” value was > 10 µg/mL.

With B4, the “pseudovirus neutralization IC50” value is > 10 µg/mL.

On to B5, for which the “pseudovirus neutralization IC50” value is > 10 µg/mL.

Consider B6, for which the “pseudovirus neutralization IC50” value is > 10 µg/mL.

Another assay deals with SARS-CoV-2 Omicron BA.2 spike pseudovirus. The description is as above. The protocol:
as §1
On to B1, for which the “pseudovirus neutralization IC50” value is > 10 µg/mL.

B2: the “pseudovirus neutralization IC50” value is > 10 µg/mL.

On to B3, for which the “pseudovirus neutralization IC50” value is > 10 µg/mL.

Turning to B4, the “pseudovirus neutralization IC50” value is > 10 µg/mL.

In the case of B5, the “pseudovirus neutralization IC50” value was > 10 µg/mL.

Consider B6, for which the “pseudovirus neutralization IC50” value was > 10 µg/mL.

For another assay, the target named is SARS-CoV-2 Omicron BA.2.75 spike pseudovirus. The assay is described as above. The protocol: as §1
For the molecule B1, the “pseudovirus neutralization IC50” value was > 10 µg/mL.

For the molecule B2, the “pseudovirus neutralization IC50” value was > 10 µg/mL.

For B3, the “pseudovirus neutralization IC50” value was > 10 µg/mL.

As for B4, the “pseudovirus neutralization IC50” value is > 10 µg/mL.

As for B5, the “pseudovirus neutralization IC50” value was > 10 µg/mL.

As to B6, the “pseudovirus neutralization IC50” value is > 10 µg/mL.

Another assay has as its target SARS-CoV-2 Omicron BA.5 spike pseudovirus. The description is as above. The protocol:
as §1
As for B1, the “pseudovirus neutralization IC50” value is > 10 µg/mL.

In the case of B2, the “pseudovirus neutralization IC50” value was > 10 µg/mL.

As for B3, the “pseudovirus neutralization IC50” value is > 10 µg/mL.

Regarding B4, the “pseudovirus neutralization IC50” value was > 10 µg/mL.

As for B5, the “pseudovirus neutralization IC50” value was > 10 µg/mL.

For the molecule B6, the “pseudovirus neutralization IC50” value is > 10 µg/mL.

Another assay deals with SARS-CoV-2 Omicron BQ.1.1 spike pseudovirus. Described as above. As to the method:
as §1
Take B1: the “pseudovirus neutralization IC50” value is > 10 µg/mL.

For B2, the “pseudovirus neutralization IC50” value is > 10 µg/mL.

With B3, the “pseudovirus neutralization IC50” value was > 10 µg/mL.

Take B4: the “pseudovirus neutralization IC50” value was > 10 µg/mL.

Take B5: the “pseudovirus neutralization IC50” value is > 10 µg/mL.

As to B6, the “pseudovirus neutralization IC50” value is > 10 µg/mL.

A further assay addresses SARS-CoV-2 Omicron XBB spike pseudovirus. Described as above. The protocol: as §1
For the molecule B1, the “pseudovirus neutralization IC50” value was > 10 µg/mL.

On to B2, for which the “pseudovirus neutralization IC50” value is > 10 µg/mL.

Consider B3, for which the “pseudovirus neutralization IC50” value was > 10 µg/mL.

On to B4, for which the “pseudovirus neutralization IC50” value was > 10 µg/mL.

Turning to B5, the “pseudovirus neutralization IC50” value is > 10 µg/mL.

As to B6, the “pseudovirus neutralization IC50” value was > 10 µg/mL.

The target of the next assay is SARS-CoV-2 early D614G spike pseudovirus. The assay is described as above. The protocol:
as §1
As for B1, the “pseudovirus neutralization IC50” value was 0.0677 µg/mL.

Consider B2, for which the “pseudovirus neutralization IC50” value was found to be 0.0741 µg/mL.

Turning to B3, the “pseudovirus neutralization IC50” value was found to be 0.002 µg/mL.

Turning to B4, the “pseudovirus neutralization IC50” value is 1.43 µg/mL.

With B5, the “pseudovirus neutralization IC50” value was > 10 µg/mL.

Consider B6, for which the “pseudovirus neutralization IC50” value was found to be 0.423 µg/mL.
